Measurements: patent US9499590B2, “Antibodies against and methods for producing vaccines for respiratory syncytial virus” (MEDIMMUNE, LLC, priority 2009, dated 2016)
Marks after values point to notes of the source that are not given here.

Test system: MEDI-524 Mab
Assay: Isothermal titration calorimetry (ITC) of F peptides with MEDI-524 Mab
Type: binding
Conditions: 25 mM His; for ΔHbinding: Mab, 18° C., pH 6.07
Description: Isothermal Titration calorimetry assays (ITC) have been described (see, for example, Heerklotz H et al., Biophysical Journal, May 1999). Molecular interactions are defined by stoichiometry and a few thermodynamic parameters. All binding reactions are associated with the absorption or generation of heat. Therefore calorimetry is emerging as a premier tool for the characterisation of interactions of biological macromolecules. ITC is the only method that measures equilibrium constants, enthalpy and entropy in one single experiment. If the experiment is performed at different temperatures the important parameter, the heat capacity change, can be determined. ITC has become a standard method for investigating the binding of ligands to receptor molecules. Accordingly, ligands are mixed with receptors, and the subsequent heats of incorporation (or binding) are measured.
To evaluate the binding properties of the wild-type peptide (SEQ ID NO.28) to Numax™/MEDI-524 by using the ITC technique. The MEDI-524 Mab was titrated with SEQ ID NO.28 in the basis buffer 25 mM His, pH 6 at 10° C. SEQ ID NO.28: (MW=2732.14, no W, Y, or C). A working solution of 55 μM was prepared by diluting 30 μL of a 5 mg/mL peptide solution with 970 μL, of 25 mM His, pH 6 buffer to be used for the ITC titrations. A 1.15 μM (0.1706 mg/ml) working solution of MEDI-524 was used for the experiments (MW 148400, A280=1.47).
To obtain binding constants for MEDI-524 Mab and MEDI-524 Fab fragments with F peptides constructed from F protein sequences, ITC was performed.
For this set of experiments, […] (1.16 μM-148.4 KDa) of MEDI-524 Mab and 0.088 mg/mL (1.88 μM-46.3 KDa) of MEDI-524 Fab, both in 25 mM His, pH 6.07 were used. On the other hand, 250 μl of lmg/mL of the different peptides dissolved in H2O, were provided by ABC. The peptides were then diluted into the appropriate volume of buffer to give a final concentration of 50 μM. The ITC experiments were run at 18° C. with the macromolecule (Mab or Fab) in the cell, by doing ˜26 injections of 10 μL of peptides, spaced 360 sec with constant stirring. The data fitting was accomplished by subtracting the average value of the few last injections as the buffer and unspecific heat of dilution contributions. […] A note apart is the fact that the observed binding capacity (N) increases with the length of the peptide, indicating possibly an extra conformational factor in the binding event. The entropic contribution: For the peptides SEQ ID NOs.24 and 26, the entropic factor seems to be similar; the extra amino acids at the end of the N-terminal seem not to affect greatly the binding parameters. On the other hand, the elongation at the C-terminal seems to decrease slightly the binding enthalpy, the binding constant, as well as the entropic factor. The binding capacity seems to be increased in the cases where the 30-mer peptides were used (SEQ ID Nos. 25 and 26), when compare to the SEQ ID NO.24 peptide, possibly due to the longer extent of the whole peptides. The binding constant seems to be smaller (weaker) for both 30-mer peptides respect to the 26-mer.

Substance | ΔHbinding | binding enthalpy (pH 6, 10° C.) [kcal/M] | binding site detected (pH 6, 10° C.) | stoichiometry (pH 6, 10° C.)
NSELLSLIHDMPITNDQKKLMSNNVQIVRQ [SEQ ID NO: 25] | -10.0 kcal/mol |  |  | 
NSELLSLINDMPITNDQKKLMSNN(X-orn)C [SEQ ID NO: 24] | -12.5 kcal/mol |  |  | 
NSELLSLINDMPITNDQKKLMSNN-NH2 (NSELLSLINDMPITNDQKKLMSNNNH; C-terminal amide) [SEQ ID NO.28] |  | 4.8 ± 0.1 | 1 | 4
STYMLTNSELLSLIHDMPITNDQKKLMSNN [SEQ ID NO: 26] | −12.6* Kcal/Mol |  |  | 
